The values below come from publication PMC9171815, “Structural insights of a highly potent pan-neutralizing SARS-CoV-2 human monoclonal antibody” (Proceedings of the National Academy of Sciences of the …, 2022).

For experiment [1], the target named is T1, S-protein RBD from the original Wuhan strain (SARS-CoV-2, UniProt P0DTC2, biotin (only in the ACE-2 competition ELISA)).
T1 construct: also called Wuhan RBD
Briefly: ELISA. Particulars: both partners purified.

Experiment [2] has as its target recombinant SARS-CoV-2 RBD (crystallised with Fab J08) (SARS-CoV-2, UniProt P0DTC2). Briefly: crystal structure. Particulars: both partners purified.

B1: mAb J08 immunoglobulin G (IgG) (antibody, V domains shown)
VH: QVQLVQSGAEVKKPGSSVKVSCKASGGTFSSYTISWVRQAPGQGLEWMGRIIPILDRVMYAQKFQGRVTITADKSTSTAYMELSSLRSEDTAVYYCARRAIDSDTYVEQSHFDYWGQGTLVTVSS
VL: EIVMTQSPATLSLSPGERATLSCRASQSVSSYLAWYQQKPGQAPSLLIYDASNRATGIPARFSGSGSGTDFTLTISSLEPEDFAVYYCQQPLTFGGGTKVEIK
notes: also called J08 IgG; wild-type J08; copies: 2 + 2
Turning to B1, the binding result in experiment [1] was “binds”.

B2: Fab J08 (fragment antigen binding of mAb J08) (Fab, V domains shown)
VH: B1 VH
VL: B1 VL
B2: the binding result in experiment [2] is on record as “binds”.
